A mixed list of measured activities; the numbers were collected in NIAID ChemDB.

Shared fields: enzyme or target tests; species: Hepatitis C virus

a–b is a range or a potency band. Rows are shuffled and stem from different studies. ICn is the concentration giving n% inhibition. Percent inhibition refers to the dose given; in toxicity tests it is the harm to the cells. Blank or dashed fields: not listed here.

smiles,protein,read-out,dose,result
COc1ccc(-c2ccc(Cl)cc2)c(-c2ccc3cc(-c4nc5cc(C(=O)O)ccc5n4CCN(C)C)ccc3n2)c1,NS5B polymerase,inhibition,33 µM,56.75%
CNC(=O)c1c(-c2ccc(F)cc2)oc2cc(N(Cc3ccc(C(=O)OC)cc3)S(C)(=O)=O)c(OC(C)C)cc12,Nonstructural protein 5B,IC50,-,≤0.5 µM
NCCCCC(NC(=O)c1ccc2c(c1)nc(-c1ccc3nc(-c4ccccc4)ccc3c1)n2C1CCCCC1)C(=O)O,NS5B polymerase,inhibition,33 µM,60.45%
CCCOc1cc2c(C(=O)NC)c(-c3ccc(F)cc3)oc2cc1N(CS(C)(=O)=O)OC,Nonstructural protein 5B,IC50,-,≤0.5 µM
CC(=O)c1ccc(-c2cc(NS(=O)(=O)c3ccc(C)cc3C)c(C(=O)O)s2)s1,NS3 ATPase,IC50,-,<5 µM
c1cncc(COc2ccc(-c3cnc4c(-c5nn[nH]n5)cnn4c3C3CCCCC3)cc2)c1,RNA-dependent RNA polymerase,IC50,-,<1 µM
COc1ccc(-c2ccc(F)c(F)c2)c(-c2ccc3cc(-c4nc5cc(C(=O)O)ccc5n4C4CCCCC4)ccc3n2)c1,NS5B polymerase,inhibition,33 µM,101%
CNC(=O)c1c(-c2ccc(F)cc2)oc2cc(NS(C)(=O)=O)c(C3CC3)cc12,Nonstructural protein 5B,IC50,-,≤0.5 µM
O=C(Nc1ccccc1-c1nc(C(=O)O)c(O)c(=O)[nH]1)c1cc2ccccc2s1,HCV polymerase,IC50,-,<100 µM
O=C(O)c1sc(-c2ccccc2)cc1NS(=O)(=O)c1ccc(F)cc1C(F)(F)F,NS3 ATPase,IC50,-,5–20 µM
NCCCC[C@H](NC(=O)c1cnn2c(C3CCCCC3)c(-c3ccc(F)cc3)cnc12)C(=O)O,RNA-dependent RNA polymerase,IC50,-,<1 µM
O=C(O)c1ccc2c(c1)nc(-c1ccc3nc(-c4ccccc4)cnc3c1)n2C1CCCCC1,NS5B polymerase,inhibition,100 µM,97.54%
CC[C@@H](C=O)NC(=O)[C@@H]1C[C@@H](OC(=O)Nc2cccc(Cl)c2)CN1C(=O)[C@@H](NC(=O)[C@@H](NC(=O)c1cnccn1)C(C)C)C(C)C,NS3 protease,Ki,-,1–100 µM
COc1ccccc1-c1cc(-c2ccc(-c3ccccc3)cc2)n2nc(C(=O)O)cc2n1,RNA-dependent RNA polymerase,IC50,-,>10 µM
CC[C@@H](C=O)NC(=O)[C@@H]1C[C@@H](OC(=O)Nc2ccc(N3CCCCC3)c([N+](=O)[O-])c2)CN1C(=O)[C@@H](NC(=O)[C@@H](NC(=O)c1cnccn1)C(C)C)C(C)C,NS3 protease,Ki,-,1–100 µM
O=C(Nc1cccc(-c2nc(C(=O)O)c(O)c(=O)[nH]2)c1)Nc1c(Cl)cncc1Cl,HCV polymerase,IC50,-,<100 µM
CC[C@@H](C=O)NC(=O)[C@@H]1C[C@@H](OC(=O)Nc2cccc(Cl)c2Cl)CN1C(=O)[C@@H](NC(=O)[C@@H](NC(=O)c1cnccn1)C(C)C)C(C)C,NS3 protease,Ki,-,1–100 µM
O=C(c1ccc(-c2ccc(Cl)cc2)c(-c2ccc3cc(-c4nc5ccccc5n4C4CCCCC4)ccc3n2)c1)N1CCCC1,NS5B polymerase,inhibition,33 µM,91.13%
O=C(CC(c1ccccc1)c1ccccc1)Nc1cscc1-c1nc(C(=O)O)c(O)c(=O)[nH]1,HCV polymerase,IC50,-,<25 µM
COc1ccc(-c2ccc(F)c(Cl)c2)c(-c2ccc3cc(-c4nc5cc(C(=O)O)ccc5n4C4CCCCC4)ccc3n2)c1,NS5B polymerase,inhibition,100 µM,99.38%
O=C(O)c1sc(-c2ccccc2)cc1N(Cc1ccc(C(F)(F)F)cc1)C(=O)CC1CCCC1,NS3 ATPase,IC50,-,5–20 µM
O=C(Nc1cccc(-c2nc(C(=O)O)c(O)c(=O)[nH]2)c1)NC1Cc2ccccc2C1,HCV polymerase,IC50,-,<100 µM
O=C(O)c1cnn2c(-c3ccccc3)c(-c3ccc(Oc4ccccc4)cc3)cnc12,RNA-dependent RNA polymerase,IC50,-,>10 µM
Cc1cc(Cl)ccc1C(=O)N(c1cc(-c2ccccc2)sc1C(=O)O)C(C)C,NS3 ATPase,IC50,-,<5 µM
O=C(O)c1ccc2c(c1)nc(-c1ccc3ccc(-c4ccccc4)nc3c1)n2C1CCCCC1,NS5B polymerase,inhibition,100 µM,98.89%
O=C(Nc1cccc(-c2nc(C(=O)O)c(O)c(=O)[nH]2)c1)Nc1ccc(Cl)c(Cl)c1,HCV polymerase,IC50,-,<100 µM
O=C(O)c1cnn2c(C3CCCCC3)c(-c3cnc4ccccc4c3)cnc12,RNA-dependent RNA polymerase,IC50,-,>10 µM
O=C(Nc1ccccc1-c1nc(C(=O)O)c(O)c(=O)[nH]1)NC(c1ccccc1)c1ccccc1,HCV polymerase,IC50,-,<100 µM
O=C(O)c1cnn2c(C3CCCCC3)c(-c3ccc(-c4ccccc4)cc3)cnc12,RNA-dependent RNA polymerase,IC50,-,1–10 µM
COc1ccc(-c2ccc(Cl)cc2)c(-c2ccc3cc(-c4nc5cc(C(=O)O)ccc5n4C4CCCCC4)ccc3n2)c1,NS5B polymerase,inhibition,33 µM,101%
O=C(O)c1nc(-c2ccccc2NS(=O)(=O)c2cccc3nonc23)[nH]c(=O)c1O,HCV polymerase,IC50,-,<100 µM
c1ccc(COc2ccc(-c3c(-c4ccccc4)cnc4c(-c5nn[nH]n5)cnn34)cc2)cc1,RNA-dependent RNA polymerase,IC50,-,>10 µM
CNC(=O)c1c(-c2ccccc2)oc2cc(C)c(OC)cc12,Nonstructural protein 5B,IC50,-,≤0.5 µM
CC[C@@H](C=O)NC(=O)[C@@H]1C[C@@H](OCc2ccccc2)CN1C(=O)[C@@H](NC(=O)c1c(-c2ccccc2)noc1C)C(C)C,NS3 protease,Ki,-,>100 µM

A second listing of 2 rows from above:

smiles | protein | read-out | dose | result
COc1ccccc1-c1cc(-c2ccc(-c3ccccc3)cc2)n2nc(C(=O)O)cc2n1 | RNA-dependent RNA polymerase | IC50 | - | >10 µM
CNC(=O)c1c(-c2ccc(F)cc2)oc2cc(NS(C)(=O)=O)c(C3CC3)cc12 | Nonstructural protein 5B | IC50 | - | ≤0.5 µM